# Measurements reported in the supplement of paper PMC3578754.
# Fold change is the IC50 on the isolate divided by the IC50 on a reference virus; 1 = unchanged, higher = more resistant. Changes are given against the subtype B consensus. No active / inactive call. The values were gathered from many studies (numbered anew) with different assays, which the source does not name. Most viruses are clinical isolates; some are laboratory strains or clones with known resistance changes. Isolates with mixed residues are left out; stretches that were not sequenced show no change. Round top values that many isolates share are read here as limits; other very high values and 0.1 may be limits too.
# Key:
# Assay in all cases: fold change of IC50 against reference virus; higher = more resistant
# zidovudine = compound: Cc1cn([C@H]2C[C@H](N=[N+]=[N-])[C@@H](CO)O2)c(=O)[nH]c1=O [zidovudine]
# Experimental: (§1)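 Cell-culture drug susceptibility tests of virus bearing the reverse transcriptase of each isolate, gathered from many studies.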
# stavudine = compound: Cc1cn([C@H]2C=C[C@@H](CO)O2)c(=O)[nH]c1=O [stavudine]
# Experimental: as §1
# didanosine = compound: O=c1[nH]cnc2c1ncn2[C@H]1CC[C@@H](CO)O1 [didanosine]
# Experimental: as §1
# nevirapine = compound: Cc1ccnc2c1NC(=O)c1cccnc1N2C1CC1 [nevirapine]
# Experimental: as §1
# zalcitabine = compound: Nc1ccn([C@H]2CC[C@@H](CO)O2)c(=O)n1 [zalcitabine]
# Experimental: as §1
# delavirdine = compound: CC(C)Nc1cccnc1N1CCN(C(=O)c2cc3cc(NS(C)(=O)=O)ccc3[nH]2)CC1 [delavirdine]
# Experimental: as §1
# abacavir = compound: Nc1nc(NC2CC2)c2ncn([C@H]3C=C[C@@H](CO)C3)c2n1 [abacavir]
# Experimental: as §1
Test System,fold change of IC50 against reference virus (zidovudine),fold change of IC50 against reference virus (stavudine),fold change of IC50 against reference virus (didanosine),fold change of IC50 against reference virus (nevirapine),fold change of IC50 against reference virus (zalcitabine),fold change of IC50 against reference virus (delavirdine),fold change of IC50 against reference virus (abacavir)
"HIV-1 isolate 537 (reverse transcriptase changes: M41L L210W T215F, study 110)",22.1,2,0.9,0.2,0.4,0.2,–
"HIV-1 isolate 845 (reverse transcriptase changes: A62V V75I F77L K102Q F116Y Q151M S162C M184V K277R, study 110)",307,11.5,18.3,–,16.1,–,28.9
"HIV-1 isolate 1421 (reverse transcriptase changes: K122E F214L A272P K277R, study 113)",1,1,1,1,1,1,–
"HIV-1 isolate 1034 (reverse transcriptase changes: K20R T39K M41L K43E E44D V60I D67N T69D K102Q V118I K122E M184V Q207E L210W R211K T215Y V245E A272P K277R I293V E297K, study 80)",500,4,2.9,2,4,–,–
"HIV-1 isolate 830 (reverse transcriptase changes: L74V Y115F K122E M184V F214L A272P K277R A376T A400T D460N S468T H483Y K512Q S519N, study 144)",1,2,5,–,4,–,11
"HIV-1 isolate 1013 (reverse transcriptase changes: M41L D67N K70R K102Q S162C Y181C T215Y K219Q K277R, study 110)",7.3,1.4,0.5,–,0.4,–,1
"HIV-1 isolate 894 (reverse transcriptase changes: F77L F116Y K122E Q151M F214L A272P K277R M357T A376T A400T N447S D460N S468T S519N, study 77)",320,100,43,1,46,–,–
"HIV-1 isolate 986 (reverse transcriptase changes: L74V K122E M184V F214L A272P K277R A376T A400T D460N S468T H483Y K512Q S519N, study 144)",–,2,4,–,5,–,8.5
"HIV-1 isolate 929 (reverse transcriptase changes: D67N T69D K70R K103N M184V K219Q, study 110)",2.8,1.5,1.2,195,2.2,145,–
"HIV-1 isolate 608 (reverse transcriptase changes: K20R V21I V35I M41L K43E E44A D67N K102Q V118I K122E I135T M184V G196E L205F H208Y L210W R211K T215Y E224D A272P I293V, study 4)",470,5,3.4,1,3,–,–
"HIV-1 isolate 1005 (reverse transcriptase changes: M41L L74V V106A K122E F214L T215Y A272P K277R M357T A376T A400T N447S D460N S468T S519N, study 68)",97,3.4,3.5,1.5,5.9,12.1,11.7
"HIV-1 isolate 478 (reverse transcriptase changes: K122E M184V F214L A272P K277R A376T A400T D460N S468T H483Y K512Q S519N, study 144)",3,2,2,–,3,–,2.9
"HIV-1 isolate 350 (reverse transcriptase changes: I5F E28Q K46Q T58S K64R R125K K249P S251L W252P, study 40)",6,3,2,1,1,2,–
"HIV-1 isolate 989 (reverse transcriptase changes: K102Q S162C I178V K277R I293V K347R R358K V435I S468P, study 4)",1,1,1,1,1,–,–
"HIV-1 isolate 267 (reverse transcriptase changes: M41L D67N K70R M184V L210W T215Y, study 110)",39.8,1.6,1.4,0.4,1.8,0.3,–
"HIV-1 isolate 160 (reverse transcriptase changes: K122E F214L A272P K277R M357T A376T A400T N447S D460N S468T S519N, study 77)",1,1,1,1,1,–,–
"HIV-1 isolate 1547 (reverse transcriptase changes: K65R K122E F214L A272P K277R A376T A400T D460N S468T H483Y K512Q S519N, study 144)",–,2,3,–,2,–,3
"HIV-1 isolate 318 (reverse transcriptase changes: Y115F K122E M184V F214L A272P K277R A376T A400T D460N S468T H483Y K512Q S519N, study 144)",2,2,5,–,3,–,6.8
"HIV-1 isolate 1260 (reverse transcriptase changes: L74V K122E F214L A272P K277R A376T A400T D460N S468T H483Y K512Q S519N, study 144)",2,1,3,–,4,–,3.8
